Data reported in US11884956B2, “Methods for detecting mycobacteria with solvatochromic dye conjugates” (priority 2016, dated 2024).

Test system: Mtb
Experiment: Limit of detection of Mtb by microscopy
Type: cell-based, Mycobacterium tuberculosis

Compound | limit of detection (liquid culture assay) | limit of detection (specimen concentrated and collected onto a filter membrane, DMN-Tre added directly onto the membrane) [CFU/mL]
CN(C)c1ccc(C(=N)c2ccc(N(C)C)cc2)cc1.Cl [Auramine O, reference compound] | ~10^4 CFU/mL | –
CN(C)c1ccc2c3c(cccc13)C(=O)N(C[C@H]1O[C@H](O[C@H]3O[C@H](CO)[C@@H](O)[C@H](O)[C@H]3O)[C@H](O)[C@@H](O)[C@@H]1O)C2=O [DMN-Tre, 4-N,N-dimethylamino-1,8-naphthalimide-conjugated trehalose] | ~10^4 CFU/mL | < 50
